{
  "source": "patent US20250268857A1",
  "about": "(priority 2020, published 2025)",
  "key": {"[1]": {"system": "Pseudomonas aeruginosa(NBRC3080)"}, "[2]": {"system": "Klebsiella pneumoniae (ATCC4352)"}, "[3]": {"system": "Staphylococcus aureus (NBRC12732)"}},
  "data": [
    {"substance": "zinc gluconate", "values": [
      {"measurement": "Minimum Inhibitory Concentration", "setting": "[1]", "value": 1600, "unit": "ppm"},
      {"measurement": "Minimum Inhibitory Concentration", "setting": "[2]", "value": 400, "unit": "ppm"},
      {"measurement": "Minimum Inhibitory Concentration", "setting": "E. coli O157 (ATCC43888)", "value": 1600, "unit": "ppm"},
      {"measurement": "Minimum Inhibitory Concentration", "setting": "[3]", "value": 200, "unit": "ppm"},
      {"measurement": "Minimum Inhibitory Concentration", "setting": "E. coli (NBRC3972)", "value": 200, "unit": "ppm"}
    ]}
  ]
}
